Results published in article PMC9394474 (Viruses, 2022).

What was measured:
[1] = molecular target: T1, human hisTRIM7-PRYSPRY (human, UniProt Q9C029 342-511); assay: ITC; conditions: both partners purified
T1 construct: vector pOPTH; also called hTRIM7-PRYSPRY; hTRIM7

[2] = molecular target: T1, human hisTRIM7-PRYSPRY; assay: crystal structure; TRIM7 PRYSPRY co-crystallised with added synthetic peptide; conditions: both partners purified

B1: MNV NS3 C-terminal peptide (peptide)
peptide: HDDFGLQ
notes: source: synthetic peptide (GenScript, Oxford, UK)
B1: binds [1].

B2: MNV NS6 C-terminal peptide (peptide)
peptide: LEALEFQ
notes: as for B1
B2: binds [1].

B3: CVB3 2BC C-terminal peptide (peptide)
peptide: TIEALFQ
notes: source: synthetic peptide (DesignerBioscience, Cambridge, UK)
B3: binds [2].
